{
  "source": "patent US10422791B2",
  "about": "“Haptens and conjugates derived from pyocyanin, antibodies thereof, and immunochemical method for detecting infections caused by Pseudomonas aeruginosa” (priority 2013, dated 2019)",
  "assay": "Recovery studies of the ELISA As230/PC1-BSA (AE) assay in spiked sputum",
  "conditions": "hydrolyzed, diluted 20 times with hPB",
  "data": [
    {"smiles": "Cn1c2cccc(=O)c-2nc2ccccc21", "note": "[Pyocyanin, pyocyanin]", "values": [
      {"measurement": "Measured concentration", "setting": "sputum spiked 2.5 nM", "result": "2.34 ± 0.37", "unit": "nM"},
      {"measurement": "Measured concentration", "setting": "sputum spiked 5 nM", "result": "4.25 ± 1.15", "unit": "nM"},
      {"measurement": "Measured concentration", "setting": "sputum spiked 50 nM", "result": "55.57 ± 7.5", "unit": "nM"},
      {"measurement": "Measured concentration", "setting": "sputum spiked 250 nM", "result": "179.63 ± 17.17", "unit": "nM"},
      {"measurement": "Measured concentration", "setting": "sputum spiked 500 nM", "result": "555.66 ± 88.49", "unit": "nM"},
      {"measurement": "Measured concentration", "setting": "sputum spiked 1000 nM", "result": "1035.88 ± 25.39", "unit": "nM"},
      {"measurement": "Measured concentration", "setting": "sputum spiked 10000 nM", "result": "7219.19 ± 829.25", "unit": "nM"},
      {"measurement": "Measured concentration", "setting": "sputum spiked 50000 nM", "result": "50146.19 ± 1685.17", "unit": "nM"},
      {"measurement": "Measured concentration", "setting": "sputum spiked 100000 nM", "result": "72434.53 ± 1347.23", "unit": "nM"}
    ]}
  ]
}
